Test results from patent US20230364121A1 (priority 2020, published 2023).
“And” between values parts separate entries of the source, which are not always exact repeats. Identical values can stand only once.

System: SARS-CoV-2 viral genome
Assay: Mutagenic effect: deep sequencing of viral RNA after the antiviral assay
Format: cell-based
Details: 5 μM; for Number of Mutations Detected: replicates 1 and 2

## CC(C)C(=O)OC[C@H]1O[C@@H](n2ccc(NO)nc2=O)C(O)C1O (some centres unmarked)
Frequency Threshold >0.1%
  Mean Number of Mutations Detected: 2821
  Number of Mutations Detected: 2818 and 2824
Frequency Threshold >0.2%
  Mean Number of Mutations Detected: 208
  Number of Mutations Detected: 231 and 185
Frequency Threshold >0.5%
  Mean Number of Mutations Detected: 35
  Number of Mutations Detected: 36 and 34
Frequency Threshold >1%
  Mean Number of Mutations Detected: 21.5
  Number of Mutations Detected: 24 and 19
